The term inhibition denotes the change of the read-out against control, counted positive when it falls.

Only a part is listed here, and it is no random draw. The source made the active and inactive calls. Rule as the data show it: active = inhibition above about 25%; inactive = the rest.

The nature of the test: VP16 transactivation inhibitors, counter-screen for SRC1 inhibitor project, cell-based, luminescence, high throughput (AID 588824). The note with it: cell-based VP16 transactivation luciferase luminescence; at 3.6 µM; active compounds read high. Background: A counterscreen serves to expose hits that act by an unwanted route or on another target.
For `CC(C)c1ccc(OP(=O)(Nc2ccccn2)Oc2ccccc2F)cc1` (stereo unspecified), the inhibition was inactive: 7.71%.

(Values after PubChem BioAssay AID588824 (The Scripps Research Institute Molecular Screening Center, 2011).)
